Experimental findings from PubChem BioAssay AID504720 (Sanford-Burnham Center for Chemical Genomics, 2011) are described below.

Protein sequences, listed by entry. Tags and fused reporters are not part of them.
UniProt P0AE70, whole entry, looked up: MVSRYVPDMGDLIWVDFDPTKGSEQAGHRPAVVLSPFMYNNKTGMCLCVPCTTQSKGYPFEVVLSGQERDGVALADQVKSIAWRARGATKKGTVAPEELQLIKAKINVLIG

The entries are a selection whose mix differs from that of the whole data set. The source made the active and inactive calls. Cut-off read from the data, not from the text of the source: active = activation above about 50%; inactive = the rest.

This assay addresses Endoribonuclease toxin MazF (Escherichia coli (strain K12)) (UniProt P0AE70). Kind of assay: activators of E. coli MazEF toxin-antitoxin RNase, primary screen, biochemical, fluorescence, uHTS (AID 504720). As to conditions: FAM/BHQ RNA-DNA oligo cleavage fluorescence, 5 h, at 20 µM, stronger effect = higher value.
For the molecule `Cc1cc(C)cc(N(C(=O)c2ccccc2)C2CCN(C(=O)OC(C)(C)C)CC2)c1`, the activation was inactive: 11.9%.

Turning to `O=C(NCC1(N2CCCCC2)CCCCC1)c1ccc(Cl)nc1`, the activation is inactive: -2.74%.

In the case of `O=C(NCC1(N2CCOCC2)CCCCC1)c1cc2ccccc2o1`, the activation is inactive: -4.29%.

On to `COc1ccc(Cl)cc1C(=O)NCC1(N2CCOCC2)CCCCC1`, for which the activation was inactive: 0.297%.

On to `O=C(OC1CN2CCC1CC2)C1c2ccccc2Oc2ccccc21` (stereo unspecified), for which the activation is inactive: -8.18%.

Turning to `O=C(NCC1(N2CCCCC2)CCCCC1)c1ccc(Cl)s1`, the activation is inactive: 6.76%.

As to `N#CC1(Nc2ccccc2)CCN(Cc2ccccc2)CC1`, the activation was inactive: -8.84%.

Take `CCOC(=O)N1CCC(Nc2ccc(OC)cc2)CC1`: the activation was inactive: 8.16%.

On to `COc1ccc(C(=O)NCC2(N3CCCCC3)CCCCC2)c(OC)c1OC`, for which the activation is inactive: -6.09%.

Take `CC(C)(C)OC(=O)N1CCC(N(C(=O)c2ccccc2)c2ccc(F)cc2)CC1`: the activation is inactive: 8.28%.

As for `COc1ccc(C(=O)NCC2(N3CCCCC3)CCCCC2)cc1`, the activation is inactive: 1.66%.

For `O=C(NCC1(N2CCCCC2)CCCCC1)c1cccs1`, the activation is inactive: -2.11%.

As for `O=C(NCC1(N2CCCCC2)CCCCC1)c1ccc(=O)[nH]c1`, the activation is inactive: 1.53%.

Turning to `Cc1cccc(NC2(C#N)CCN(Cc3ccccc3)CC2)c1`, the activation was inactive: 11.7%.

`CSc1ccccc1C(=O)NCC1(N2CCCCC2)CCCCC1`: the activation was inactive: 0.56%.

As to `COc1cc(C(=O)NCC2(N(C)C)CCCCC2)ccc1OC(F)F`, the activation was inactive: -8.83%.

With `CCOC(=O)N1CCC(Nc2cccc(C)c2)CC1`, the activation was inactive: 7.36%.

As for `O=C1CCN(Cc2ccccc2)CC1`, the activation is inactive: -1.41%.

With `CCOc1ccc(C)cc1CN(CCCl)CCCl`, the activation was inactive: 1.2%.

`CCOC(=O)N1CCC(Nc2ccc(F)cc2)CC1`: the activation was inactive: 0.631%.

For the molecule `COc1ccc(NC2CCN(CCc3ccccc3)CC2)c(OC)c1`, the activation was inactive: 4.94%.

Turning to `O=C(NCC1(N2CCCCC2)CCCCC1)c1ccc(F)cc1`, the activation was inactive: -0.501%.

With `CCCCOc1ccc(C(=O)NCC2(N3CCOCC3)CCCCC2)cc1`, the activation was inactive: 1.89%.

With `O=P1(N(CCCl)CCCl)SCCCS1`, the activation was inactive: -3.31%.

Consider `O=C(NCC1(N2CCCCC2)CCCCC1)c1cccc(C(F)(F)F)c1`, for which the activation is inactive: -4.06%.

Turning to `O=C(NCC1(N2CCOCC2)CCCCC1)c1cc(=O)[nH]c2ccccc12`, the activation is inactive: 2.46%.

Regarding `COc1cc(C(=O)NCC2(N3CCCCC3)CCCCC2)ccc1OC(F)F`, the activation is inactive: 10.2%.

Consider `COc1ccc(NC2CCN(C(=O)OC(C)(C)C)CC2)cc1`, for which the activation was inactive: 8.28%.

Consider `CC(C)c1ccc(C(=O)NCC2(N3CCOCC3)CCCCC2)cc1`, for which the activation was inactive: 3.62%.

In the case of `CN1CCN(CCOC(=O)C(O)(c2ccccc2)c2ccccc2)CC1`, the activation is inactive: -3.91%.

For `O=C(NCC1(N2CCCCC2)CCCCC1)c1ccc(OC(F)F)cc1`, the activation was inactive: 4.57%.

For the molecule `N#CC1(Nc2ccccc2)CCN(CCc2ccccc2)CC1`, the activation was inactive: -3.52%.

As to `CCN1CCC(Nc2ccc(Cl)cc2)CC1`, the activation was inactive: 8.48%.

With `O=C(NCC1(N2CCCCC2)CCCCC1)c1cccc([N+](=O)[O-])c1`, the activation was inactive: 3.62%.

Take `CSc1ccc(C(=O)NCC2(N3CCOCC3)CCCCC2)cc1`: the activation was inactive: -0.67%.

On to `O=C(NCC1(N2CCCCC2)CCCCC1)c1cncc(Br)c1`, for which the activation was inactive: -1.63%.

Consider `CN1CCC(Nc2cccc(F)c2)CC1`, for which the activation is inactive: 4.18%.

As to `CCCOc1ccc(C(=O)NCC2(N(C)C)CCCCC2)cc1OC`, the activation was inactive: -1.68%.

As for `Cc1ccc(C(=O)NCC2(N(C)C)CCCCC2)o1`, the activation was inactive: 3.36%.

Consider `CC(C)c1ccc(NC2CCN(C(=O)OC(C)(C)C)CC2)cc1`, for which the activation is inactive: 5.82%.

With `CN(C)c1cccc(C(=O)NCC2(N3CCCCC3)CCCCC2)c1`, the activation was inactive: 9.12%.

On to `COc1ccc(CN(CCCl)CCCl)cc1Cl`, for which the activation is inactive: -4.38%.

Consider `O=C(NCC1(N2CCOCC2)CCCCC1)c1cc(F)c(F)cc1Cl`, for which the activation was inactive: 7.95%.

Regarding `COc1cc(OC)c(C(=O)NCC2(N(C)C)CCCCC2)cc1OC`, the activation is inactive: 3.95%.

Consider `CCOC(=O)N1CCC(Nc2ccc(C)cc2)CC1`, for which the activation is inactive: 3.98%.

For `N/C(=N\O)c1c(N)no[n+]1[O-]`, the activation was inactive: -1.53%.

For the molecule `O=C(OC1CN2CCC1CC2)C1c2ccccc2C=Cc2ccccc21` (stereo unspecified), the activation was inactive: 10.4%.

On to `CCc1cc(C(=O)NCC2(N3CCCCC3)CCCCC2)sc1C`, for which the activation was inactive: 1.08%.

As for `COc1cc(C(=O)NCC2(N3CCOCC3)CCCCC2)cc(OC)c1C`, the activation was inactive: -0.343%.

`O=C(NCC1(N2CCOCC2)CCCCC1)c1cc(Br)ccc1Cl`: the activation was inactive: -0.134%.

As for `COc1ccc(C(=O)NCC2(N3CCOCC3)CCCCC2)cc1OC`, the activation is inactive: -1.89%.

Consider `CN(C)C1(CNC(=O)c2cccc(C#N)c2)CCCCC1`, for which the activation was inactive: 7.48%.

`CCCN1CCC(Nc2cc(OC)cc(OC)c2)CC1`: the activation is inactive: -1.64%.

Consider `Cc1cc(N(CCCl)CCCl)ccc1C=O`, for which the activation is inactive: 9.32%.

As to `c1ccc(CN2CCC(Nc3ccccc3)CC2)cc1`, the activation is inactive: 1.4%.

Take `N#Cc1ccc(C(=O)NCC2(N3CCCCC3)CCCCC2)cc1`: the activation was inactive: 5.02%.

`CC(C)(C)OC(=O)N1CCC(N(C(=O)c2ccccc2)c2ccc(Cl)cc2)CC1`: the activation was inactive: 8.83%.

For `CCN1CCC(Nc2cccc(F)c2)CC1`, the activation was inactive: 9.1%.

Take `Cc1ccccc1NC1(C#N)CCN(Cc2ccccc2)CC1`: the activation is inactive: 2.29%.

For `Cn1c(=O)[nH]cc(N(CCCl)CCCl)c1=O`, the activation was inactive: 2.63%.

Consider `CN(C)c1ccc(C(=O)NCC2(N3CCCCC3)CCCCC2)cc1`, for which the activation was inactive: 2.31%.

`O=C(NCC1(N2CCCCC2)CCCCC1)c1ccco1`: the activation is inactive: -0.048%.

Take `CC(=O)N(c1ccccc1)C1CCNCC1`: the activation is inactive: 3.1%.

On to `COc1cc(OC)cc(C(=O)NCC2(N3CCCCC3)CCCCC2)c1`, for which the activation was inactive: -3.45%.

With `Fc1ccccc1NC1CCN(Cc2ccccc2)CC1`, the activation was inactive: 7.73%.

For `Cc1ccc(C(=O)NCC2(N3CCCCC3)CCCCC2)o1`, the activation is inactive: 1.86%.

`Cc1ccc(NC2(C#N)CCN(Cc3ccccc3)CC2)cc1`: the activation is inactive: 14%.

With `COc1cccc(C(=O)N(c2cc(C)cc(C)c2)C2CCN(C(=O)OC(C)(C)C)CC2)c1`, the activation was inactive: -0.817%.

For `COc1cc(OC)cc(C(=O)NCC2(N3CCOCC3)CCCCC2)c1`, the activation was inactive: 2.26%.

Consider `CCC(CO)(C(=O)OC1CN2CCC1CC2)c1ccccc1` (stereo unspecified), for which the activation was inactive: 1.77%.

For the molecule `CN1CCC(Nc2ccc(Cl)cc2)CC1`, the activation was inactive: 13.2%.

With `CN1CCC(Nc2ccc(F)c(Cl)c2)CC1`, the activation was inactive: -4.68%.

As for `CCOc1ncccc1C(=O)NCC1(N2CCOCC2)CCCCC1`, the activation was inactive: 2.16%.

For the molecule `O=C(O)C1(Nc2ccccc2)CCN(Cc2ccccc2)CC1`, the activation was inactive: 4.71%.

In the case of `CC(C)(C)OC(=O)N1CCC(Nc2ccccc2)CC1`, the activation was inactive: -16.1%.

`CCCOc1ccc(C(=O)NCC2(N(C)C)CCCCC2)cc1`: the activation is inactive: 8.39%.
